## Library screen at single concentrations

The values are deposited in ChEMBL (CHEMBL3988442, “University of Dundee, Small-Polar-MMV Screening Library” (2021)).

Mtb glucose medium: 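Growth of Mycobacterium tuberculosis over 3 days (7H9 medium with glucose and tyloxapol); the read-out is not stated. Tested at 500 µM. Direction is inferred from retests: higher values go with more growth inhibition. About 18,000 compounds were tested under these conditions; 7.9% (about 1,400) showed 50% or more at least once.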
Mtb cholesterol medium: 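Phenotypic screen: M. tuberculosis growth, cholesterol and DPPC medium, 4 days; the read-out is not stated. Tested at 500 µM. The record gives no direction; compounds that gave an IC50 in retests scored well above the rest, so higher reads as more growth inhibition. Size under these conditions: about 18,000 compounds, about 900 of them at 50% or above in at least one test.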

Each number is a percent effect as filed. The record does not define 0% and 100%; most values in the screen are far below 50% and negative numbers occur (in some assays of this library far below -100). The entries come from a sample that favours strong results. A dash means the value is not listed here; it may have been measured.

structure | Mtb glucose medium | Mtb cholesterol medium
COc1cccc(C2CNCCO2)c1 (centres unmarked) | 28.81 | 39.11
Cc1cc(C(=O)NCC(CO)c2ccccc2)ns1 (centres unmarked) | 73.01 | 71.26
Cc1csc(-n2cccc2)n1 | - | 10.53
Cc1cc(S(=O)(=O)N2CCCC2CN)sc1C (centres unmarked) | 53.38 | 22.88
O=C(c1ccc(OCC2CC2)cc1)N1CC(O)C1 | 33.96 | -
NCC1CN(C2CC2)C(=O)O1 (centres unmarked) | - | -18.24
CC(C)c1cccc(S(=O)(=O)NCCCN)c1 | 58.99 | -
NCc1cc(=O)n2ccccc2n1 | -20.82 | -
Cn1ncc(Cl)c1C(=O)Nc1ccncc1 | - | 12.9
NC(=O)COCCNC(=O)CC1CCCCC1 | -2.442 | -
COc1ccnc(C(N)=O)c1 | - | 5.38
O=C(OCC(F)(F)F)c1cccnc1 | -10.78 | -23.95
Cc1c(Br)cccc1C(=O)N(C)CCNS(C)(=O)=O | 22.5 | -
CCN1CCCN(c2ccccn2)CC1 | - | 11.48
CCC(N)C(=O)Nc1ccc2c(c1)CCC2 (centres unmarked) | 71.83 | 60.26
NC(=O)c1ccon1 | 10.28 | -
CSCC(C)(O)CNC(=O)c1cccc(N(C)C)c1 (centres unmarked) | 30.58 | -
CNC(=O)NC(=O)CNc1cc(F)cc(F)c1 | - | -23.63
CCc1nccn1CCCNC(=O)CSC | 4.552 | -
CN(CC(=O)Nc1ccc2oc(=O)[nH]c2c1)C1CC1 | - | -5.413
COc1ccc2nc(CCN)[nH]c2c1 | 13.23 | -
CNC(=O)Nc1cc(Cl)cc2c1OCC2 | - | 13.17
CN(C)c1nccc(CNc2ccc(C#N)nc2)n1 | 59.65 | 63.11
COCCCN1CCC(CNc2cc(C)nc(N)n2)C1 (centres unmarked) | - | 2.2
CC(C)n1cnnc1CCNC(=O)C1(C)CCCCO1 (centres unmarked) | -2.071 | -
COc1ccc(C(=O)NCC2CCCN2)cc1 (centres unmarked) | 15.99 | -4.635
CCC1CN(CCN2CCOCC2)CCN1CC(F)F (centres unmarked) | - | -11.7
Cc1ccc(NC(=O)CS(C)(=O)=O)c(C)c1 | 6.851 | -
CC(=O)c1ccc(C(=O)NCC(C)N2CCCC2)s1 (centres unmarked) | - | 8.656
c1csc(CNC2CC2)n1 | 10.5 | -
CN(CCO)C[C@@H]1CN(C(=O)CC2CCC2)C[C@@H]1CO | 7.167 | -
COc1ccc(C(CN)CO)cc1 (centres unmarked) | - | 4.295
Cc1ccc(C)c(-n2c(C)cc(=O)[nH]c2=O)c1 | -10.85 | -
NS(=O)(=O)c1ccc(NC(=O)c2ccccc2O)cc1 | 36.47 | -
CN1CCCN(C(=O)Nc2ccc(Cl)cc2)CC1 | - | 7.595
COc1nc(N)n[nH]1 | -10.24 | -
O=C(c1cc(Cl)ccc1F)N1CCNCC1 | 0.4294 | -
Cn1cc(CC(N)CO)cn1 (centres unmarked) | - | 3.529
CN(C(=O)Cn1cc(Br)cn1)C1(C#N)CCCCC1 | -2.881 | -
CS(=O)(=O)NCCC1=CCCCC1 | 49.54 | -
Cn1cc(C2CSCCN2Cc2cncs2)cn1 (centres unmarked) | 11.02 | -
NCC1CCN(C(=O)CCc2ccc(F)cc2)CC1 | 41.53 | 15.08
Cc1cc(F)cc(S(=O)(=O)NCCCN)c1 | 27.41 | -
CSc1cc(NC(=O)CCc2cncc(F)c2)ccn1 | - | 15.53
CCN(CC)CCOc1ccccc1CN | -10.28 | -
Cn1nc(C(=O)NCCc2ccccc2Br)ccc1=O | - | 1.747
Cc1cncc(CN)c1 | - | -7.047
CCN1CCN(Cc2cc(C(C)=O)ccc2OC)CC1 | 56.03 | -
NCc1ccc(CN2CCOCC2)o1 | -5.53 | -15.22
CCN(Cc1ccc(Cl)c(Cl)c1)C(=O)CCS(C)(=O)=O | 62.17 | 60.35
Cc1ccc(NC(=O)CC(C)C)cc1 | -6.701 | -
CNCCc1ccc(C#N)cc1 | 17.62 | -
CC(C)Cc1nc(C#N)c(NCc2ccncc2)o1 | -8.804 | -
COCCCN1CCC(CNc2ccncn2)C1 (centres unmarked) | - | 4.121
O=C(NCCO)NC1CCS(=O)(=O)C1 (centres unmarked) | 0.893 | -
NCC1CCC2(CCCC2)O1 (centres unmarked) | -1.23 | -
O=C(CSCCN1C(=O)CCC1=O)Nc1ccccc1 | - | -3.358
O=C(Nc1ccc(F)c(Cl)c1)N1CCC(O)C1 (centres unmarked) | 72.08 | 64.62
CN(C)C(=O)CN(C)C(=O)COc1ccc(Cl)cc1Cl | - | -7.947

Repeated from the top, 5 entries:

structure	Mtb glucose medium	Mtb cholesterol medium
COc1cccc(C2CNCCO2)c1 (centres unmarked)	28.81	39.11
Cc1cc(C(=O)NCC(CO)c2ccccc2)ns1 (centres unmarked)	73.01	71.26
Cc1csc(-n2cccc2)n1	-	10.53
Cc1cc(S(=O)(=O)N2CCCC2CN)sc1C (centres unmarked)	53.38	22.88
O=C(c1ccc(OCC2CC2)cc1)N1CC(O)C1	33.96	-